This series relates to Vero-E6 cells. Description: Cytotoxicity assay (CCK-8). In kind it is cell-based. Conditions: 48 h. As to the method: Vero-E6 cells were seeded in 96-well plates (1 × 10^4 cells per well) and allowed to grow for 24 h before treatment. Then, serial 2-fold dilutions of compounds were added to the cells. At 48 h, the cells were incubated with 10 μL CCK-8 reagent (cell counting kit-8, Bimake) for 1 h at 37 °C. The absorbance at 450 nm was read by a Microplate Reader (Varioskan Flash, Thermo Fisher). Cell viability was expressed as a percentage of the treated cells to the control (untreated) cells. For each compound concentration, three wells were performed in parallel, and the mean values of the cell viability were calculated. The CC50 was calculated by nonlinear regression analysis using GraphPad Prism 8.0 software to determine the cytotoxic concentration at which 50% of the cells are viable.

In general, CC50 refers to the concentration at which the toxic effect on the cells reaches its halfway point. On to Brusatol, for which the CC50 came out at 19 µM.

For the origin of these results see paper PMC7532339, “A cell-based large-scale screening of natural compounds for inhibitors of SARS-CoV-2” (Signal Transduction and Targeted Therapy, 2020).
